PubChem BioAssay AID1259414, Drosophila RNAi Screening Center | 2018
Assay: 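Fly genes that alter Wolbachia amount inside host cells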 (primary screen). System: Drosophila JW18 cells infected with Wolbachia. Reagents: long dsRNA against Drosophila genes, 0.25 µg dsRNA per well of a 384-well plate. Duration: 5 days. Conditions: cells persistently infected with Wolbachia before knock-down; no added drug. Measurement: 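Imaged fluorescence in situ signal for Wolbachia 23S rRNA per DAPI-counted host cell, given as a robust z-score within each plate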. Scale: Wolbachia per cell robust z: higher = more Wolbachia per host cell than the plate typical. Active means: 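Hit when robust z is 1.5 or more, or -1.5 or less, in at least two of three replicates; excludes dsRNAs with several or no targets, genes not expressed in JW18 and well A1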.
The deposit covers about 24,000 reagents; this is a random part of those that have a named target and a result. Over the whole deposit, about 1,210 (5%) are marked active. 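Inactive calls also include excluded dsRNAs with several or no targets, genes unexpressed in JW18, and well A1, regardless of score.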

predicted target,DRSC id,"Wolbachia per cell robust z, rep 1","Wolbachia per cell robust z, rep 2","Wolbachia per cell robust z, rep 3",outcome
CG10628,DRSC02080,-4.43,-0.00426,0.416,inactive
Sbat,DRSC00160,-0.0595,-0.986,-0.389,inactive
CG14892,DRSC15014,0.38,0.296,1.06,inactive
CG4496,DRSC02753,-1.41,-0.595,0.0969,inactive
CG9426,DRSC03219,-0.143,1.54,-10.8,inactive
pain,DRSC04273,0.341,-0.874,0.187,inactive
pain,DRSC28351,-1.01,0.309,0.771,inactive
Sr-CII,DRSC07557,-1.34,-4.87,0.101,inactive
Sr-CII,DRSC25606,1.23,-0.069,0.0283,inactive
CG14096,DRSC26975,-1.37,0.986,-0.0973,inactive
APP-BP1,DRSC10920,0.124,1.42,-0.158,inactive
CG14445,DRSC17938,-0.546,0.53,-0.3,inactive
CG14445,DRSC24159,-0.607,-0.0475,-1.68,inactive
CG8773,DRSC16444,0.469,0.0937,0.443,inactive
CG8773,DRSC23903,-0.313,-0.228,-0.0155,inactive
yellow-g2,DRSC08338,0.662,0.166,0.34,inactive

3 entries from above in another layout.
{"predicted target":"pain","DRSC id":"DRSC04273","Wolbachia per cell robust z, rep 1":0.341,"Wolbachia per cell robust z, rep 2":-0.874,"Wolbachia per cell robust z, rep 3":0.187,"outcome":"inactive"}
{"predicted target":"pain","DRSC id":"DRSC28351","Wolbachia per cell robust z, rep 1":-1.01,"Wolbachia per cell robust z, rep 2":0.309,"Wolbachia per cell robust z, rep 3":0.771,"outcome":"inactive"}
{"predicted target":"Sr-CII","DRSC id":"DRSC07557","Wolbachia per cell robust z, rep 1":-1.34,"Wolbachia per cell robust z, rep 2":-4.87,"Wolbachia per cell robust z, rep 3":0.101,"outcome":"inactive"}

More results follow:
predicted target,DRSC id,"Wolbachia per cell robust z, rep 1","Wolbachia per cell robust z, rep 2","Wolbachia per cell robust z, rep 3",outcome
Teh2,DRSC08458,-0.218,0.0101,0.31,inactive
Teh2,DRSC29037,-2.56,-2.22,-1.67,inactive
CG30283,DRSC04071,-2.65,-0.112,-6.09,active
CG30283,DRSC24411,-0.425,-1.04,-1.32,inactive
Eb1,DRSC05016,0.398,0.187,0.272,inactive
Eb1,DRSC41538,0.27,0.55,-1.74,inactive
brv3,DRSC18657,1.39,-0.618,1.01,inactive
brv3,DRSC25544,0.468,1.38,-0.489,inactive
Dlip1,DRSC18460,-0.457,-0.0573,0.226,inactive
Xxylt,DRSC04107,-0.271,0.973,0.938,inactive
Pdi,DRSC11250,-0.897,-2.03,-1.64,active
Pdi,DRSC26376,0.567,-2.49,-0.611,inactive
tgy,DRSC20045,0.336,-1.02,-2.31,inactive
RhoGAP5A,DRSC18294,-1.14,-0.808,-8.16,inactive
RhoGAP5A,DRSC24778,0.552,-1.52,-1.32,inactive
RhoGAP5A,DRSC38990,-4.22,0.359,0.871,inactive
Abp1,DRSC09693,-1.05,1.4,-0.309,inactive
CG7755,DRSC07040,-1.16,-0.0048,-3.05,inactive
pps,DRSC16057,-0.675,-1.22,-1.12,inactive
pps,DRSC23652,1.92,-0.497,1.05,inactive
pps,DRSC26594,-0.654,1.17,0.105,inactive
CR42532,DRSC06713,-2.96,-0.822,-0.63,inactive
Map205,DRSC16732,1.53,0.422,1.28,inactive
Map205,DRSC27322,-0.894,-0.906,-2.32,inactive
Sh3beta,DRSC11001,-4.19,0.127,-9.44,active
Sh3beta,DRSC22053,-0.316,-0.878,0.85,inactive
Sh3beta,DRSC27871,-0.314,0.05,-0.0744,inactive
Ino80,DRSC14760,0.442,-1.63,-1.33,inactive
Ino80,DRSC15333,-5.15,0.35,1.21,inactive
Ino80,DRSC15501,0.136,-0.74,-0.249,inactive
